Measurements as given in ChEMBL document CHEMBL1240375, “Identification of a plasmid-borne resistance gene cluster comprising the resistance genes erm(T), dfrK, and tet(L) in a porcine methicillin-resistant Staphylococcus aureus ST398 strain” (2010).

Tested on: Staphylococcus aureus
Settings: 25

How did the MIC turn out when GENTAMICIN was run?
The MIC was 0.5 µg/mL.
